Compound potency records, mixed from different reports. Data source: NIAID ChemDB in PubChem.

Common to all: tests in culture; organism: HIV-1; cells: MT-4; measure: EC50

An empty or dashed field is not shown. Neighbouring rows are from separate reports. ECn is the concentration giving n% inhibition of infection, replication or growth.

smiles	strain or isolate	mutations	method	setting	value
Fc1ccc(-n2c(Cc3ccccn3)n[nH]c2=S)cc1Cl	IIIB		cytopathic effect / MTT		>100 µM
C=CCNc1nc(Nc2ccc(C#N)cc2F)nc(Oc2ccc(C)cc2)n1	IIIB		MTT		4.35 µM
CCOCn1c(Cc2cccc(F)c2)c(CC)c(=O)[nH]c1=O	EFV-resistant (K103R V179D P225H)		MTT		>100 µM
O=c1nc(NO)c(CCCl)cn1[C@H]1C[C@H](O)[C@@H](CO)O1	IIIB				>300 µM
CCC(C)[C@@H](C(=O)N[C@@H](Cc1ccccc1)[C@H](O)CN(CC(C)C)S(=O)(=O)c1ccc(/C=N/O)cc1)N1CCN(Cc2ccc(OC)nc2)C1=O			cytopathic effect / MTT		0.001 µM
O=c1[nH]cnc2c1ncn2[C@@H]1O[C@H](CO)[C@H]1CO	IIIB		hybridisation		<300 µg/mL
C[C@]12CCCCC[C@]1(O)Cn1cc(C(=O)NCc3ccc(F)cc3F)c(=O)c(O)c1C2=O	NL4-3		GFP	0% human serum	0.028 µM
O=C1[C@@H](Cc2ccccc2)NC(=S)N1c1ccccc1			cytopathic effect / XTT		<100 µg/mL
CC(=O)c1ccc(C)cc1N[C@@H](C(N)=O)c1c(Cl)cccc1Cl	IIIB		cytopathic effect / MTT		2.1 µM
Nn1cc(C(=O)O)c(=O)c2ccc(N3CCN(c4nc5ccccc5s4)CC3)nc21	IIIB		MTT		1.18 µM
Cc1ccc(Cl)c(Nc2nnc(Cc3ccccn3)s2)c1	IIIB		cytopathic effect / MTT		>100 µM
Cn1cc(C(=O)O)c(=O)c2cncc(N3CCN(c4nc5ccccc5s4)CC3)c21	IIIB		MTT		>25.57 µM
N#Cc1csc(NC(=O)NCCc2ccccc2)n1			cytopathic effect / XTT		>100 µg/mL
Cn1cc(C(=O)O)c(=O)c2ccc(N3CCN(c4ccccn4)CC3)nc21	IIIB		MTT		0.06 µM
CC(C)C(O)[C@@H]1CC(NC(=O)[C@H](OCc2ccccc2)[C@H](O)[C@@H](O)[C@@H](OCc2ccccc2)C(=O)N[C@H]2c3ccccc3C[C@H]2O)CO1			cytopathic effect / XTT		3.75 µM
C=C(C)[C@@H]1CC[C@]2(C(=O)O)CC[C@]3(C)[C@H](CC[C@@H]4[C@@]5(C)CC[C@H](OC(=O)CCC(=O)OC[C@H]6OC(n7cc(C)c(=O)[nH]c7=O)C[C@@H]6N=[N+]=[N-])C(C)(C)[C@@H]5CC[C@]43C)[C@@H]12	IIIB				0.015 µM
Nc1ncnc2c1ncn2[C@@H]1O[C@H](CO)[C@H]1CO	IIIB		antigen		<1 µg/mL
Cc1cc(C#N)cc(C)c1Oc1nc(NC2CCN(Cc3ccc(S(N)(=O)=O)cc3)CC2F)nc2ccsc12	IIIB	NNRTI-resistant (RT Y188L)	MTT		0.0139 µM
CNc1nc(Nc2ccc(C#N)cc2F)nc(Oc2ccc3ccccc3c2Br)n1	IIIB		MTT		0.36 µM
CCOCn1c(Cc2cc(OC)cc(OC)c2)c(CC)c(=O)[nH]c1=O	IIIB	Efavirenz-resistant (K103R + V179D + P225H)	MTT		>100 µM
CC(C)[C@H](NC(=O)OCc1ccccn1)C(=O)N[C@@H](Cc1ccccc1)[C@@H](O)C[C@H](Cc1ccccc1)NC(=O)OCc1cccnc1	NL4-3	PR-L10R M46I L63P V82T I84V	p24		<3 µM
CCOC(=O)Oc1nc(=O)n([C@H]2C[C@H](N=[N+]=[N-])[C@@H](COC(=O)[C@]34CCC(C)(C)C[C@H]3C3=CC[C@@H]5[C@@]6(C)CC[C@H](O)C(C)(C)[C@@H]6CC[C@@]5(C)[C@]3(C)CC4)O2)cc1C	IIIB				0.01 µM
CCOC(=O)C(C(=O)OCC)=C1C=CN([C@H]2C[C@H](N=[N+]=[N-])[C@@H](CO)O2)C(=O)N1	IIIB				>300 µM
Cc1cc(C#N)cc(C)c1Oc1nc(NC2CCN(Cc3ccc(S(N)(=O)=O)cc3)CC2C(=O)O)nc2ccsc12	IIIB	NNRTI-resistant (RT E138K)	MTT		3.34 µM
C=Cn1cc(C(=O)O)c(=O)c2ccc(N3CCN(c4nc5ccccc5o4)CC3)nc21	IIIB		MTT		0.86 µM
CC(C)c1c(Cc2ccccc2)n(COCCOc2ccccc2)c(=O)[nH]c1=O	IIIB	Efavirenz-resistant (K103R + V179D + P225H)	MTT		18.5 µM
Cc1cc(C#N)cc(C)c1Oc1nc(NC2CCN(Cc3ccc(S(C)(=O)=O)cc3)CC2)nc2sccc12	IIIB	NNRTI-resistant (RT E138K)	MTT		0.00726 µM
C#CCOCn1c(Cc2cccc(F)c2)c(CC)c(=O)[nH]c1=O	N119 (Y181C)		MTT		>20 µM
C=C1[C@H](n2cnc3c(N)ncnc32)O[C@@H]1CO	IIIB				0.6 µg/mL
Cn1cc(C(=O)O)c(=O)c2ncc(N3CCN(c4nc5ccccc5s4)CC3)cc21	IIIB		MTT		>119 µM
CCc1c(Cc2ccccc2)n(COCCOc2ccccc2)c(=O)[nH]c1=O	N119	Y181C	MTT		>32 µM
CCOCn1c(Cc2cc(C(F)(F)F)cc(C(F)(F)F)c2)c(C(C)C)c(=O)[nH]c1=O	EFV-resistant (K103R V179D P225H)		MTT		>100 µM
CCc1c(Cc2cc(OC)cc(OC)c2)n(COCCOc2ccccc2)c(=O)[nH]c1=O	IIIB	Efavirenz-resistant (K103R + V179D + P225H)	MTT		>41 µM
O=C(NC1CO[C@H](CO)C1)[C@H](OCc1ccccc1)[C@H](O)[C@@H](O)[C@@H](OCc1ccccc1)C(=O)N[C@@H]1CO[C@H](CO)C1			cytopathic effect / XTT		>10 µM
COc1cc(Cc2[nH]c(=S)[nH]c(=O)c2C(C)C)cc(OC)c1	N119	Y181C	MTT		>100 µM
Cc1ccc(Oc2nc(Nc3ccc(C#N)cc3F)nc(NC(C)C)n2)cc1	IIIB		MTT		18.3 µM
COC(=O)[C@H](C)NC(O)(Oc1ccccc1)Oc1nc(N(C)C)nc(C(C)c2c(F)cccc2F)c1C			MTT		0.007 µM
Cc1cc(/C=C/C#N)cc(C)c1Oc1nc(NC2CCN(Cc3ccncc3)CC2)nc2ccsc12	IIIB	NNRTI-resistant (RT Y188L)	MTT		0.0322 µM
Cn1cc(C(=O)O)c(=O)c2cc(N)c(N3CCN(c4ccccn4)CC3)nc21	IIIB		MTT		1.49 µM
C=C(C)COCn1c(Cc2c(F)c(F)cc(F)c2F)c(CC)c(=O)[nH]c1=O	N119 (Y181C)		MTT		>38 µM
Cc1cc(/C=C/C#N)cc(C)c1Oc1nc(NC2CCN(Cc3ccc([N+](=O)[O-])cc3)CC2)nc2ccsc12	IIIB	NNRTI-resistant (RT Y188L)	MTT		0.117 µM
CCc1c(Cc2cc(OC)cc(OC)c2)[nH]c(=O)[nH]c1=O	IIIB	Efavirenz-resistant (K103R + V179D + P225H)	MTT		>100 µM
CC(=O)c1ccc(C)cc1NC(C(N)=O)c1c(Cl)cccc1Cl	MN		cytopathic effect / MTT		0.006 µM
[N-]=[N+]=N[C@H]1C[C@H](n2cc(CCO)c(=O)[nH]c2=O)O[C@@H]1CO	IIIB				>300 µM
CC(=O)CSc1nc(Cc2cccc3ccccc23)c(C)c(=O)[nH]1	SO561945	RT-K103N Y181C	cytopathic effect		≥58.2 µM
O=C1NC(=S)N[C@@H]1c1ccc(-c2ccccc2)cc1			cytopathic effect / XTT		>10 µg/mL
CCOC(=O)c1ccc(CN2CCC(Nc3nc(Oc4c(C)cc(/C=C/C#N)cc4C)c4sccc4n3)CC2)cc1	IIIB	NNRTI-resistant (RT K103N)	MTT		0.0132 µM
CCNc1nc(Nc2ccc(C#N)cc2F)nc(Oc2ccc(C)cc2)n1	IIIB		MTT		8.89 µM
Brc1cccc(Nc2nnc(Cc3ccccn3)s2)c1	IIIB		cytopathic effect / MTT		>74 µM
COCC[C@@]1(C)C(=O)c2c(O)c(=O)c(C(=O)NCc3ccc(F)cc3F)cn2C[C@@H]1OC	NL4-3		GFP	0% human serum	0.002 µM
CCOC(=O)C(C(=O)OCC)=C1NC(=O)N([C@H]2C[C@H](N=[N+]=[N-])[C@@H](CO)O2)C=C1C	IIIB				40 µM
CC(C)CN(C[C@@H](O)[C@H](Cc1ccccc1)NC(=O)[C@@H](N1CCN(Cc2cccnc2)C1=O)C(C)(C)C)S(=O)(=O)c1ccc(/C=N/O)cc1			cytopathic effect / MTT	50% human serum	0.012 µM
C[C@@]12CCCCC[C@]1(O)Cn1cc(C(=O)NCc3ccc(F)cc3F)c(=O)c(O)c1C2=O	NL4-3		GFP	100% human serum	0.06 µM
C=Cn1cc(C(=O)O)c(=O)c2ccc(N3CCN(c4nccs4)CC3)nc21	IIIB		MTT		1.46 µM
CCCCN1C(=O)[C@@H](Cc2ccccc2)NC1=S			RT activity		<100 µg/mL
CCC(C)[C@@H](C(=O)N[C@@H](Cc1ccccc1)[C@H](O)CN(CC(C)C)S(=O)(=O)c1ccc(/C=N/O)cc1)N1CCN(Cc2cccc(COC)n2)C1=O			cytopathic effect / MTT		0.003 µM
O=C(NCCc1ccccc1)Nc1ccn[nH]1			cytopathic effect / XTT		>100 µg/mL
CNc1nc(Nc2ccc(C#N)cc2F)nc(Oc2ccc(C)cc2)n1	IIIB		MTT		2.884 µM
N#Cc1cc(Cl)cc(Oc2c(Br)ccc(CC(=O)Nc3ccc(S(N)(=O)=O)cc3Cl)c2F)c1		L100I			0.0003 µM
CCOC[C@@H]1CC(NC(=O)[C@H](OCc2ccccc2)[C@H](O)[C@@H](O)[C@@H](OCc2ccccc2)C(=O)N[C@H]2c3ccccc3C[C@H]2O)CO1			cytopathic effect / XTT		4.6 µM
O=C1[C@@H](Cc2ccccc2)NC(=S)N1Cc1ccccc1			RT activity		<100 µg/mL
CCOCn1c(Cc2ccccc2)c(C(C)C)c(=O)[nH]c1=O	IIIB	Efavirenz-resistant (K103R + V179D + P225H)	MTT		>100 µM
Nc1ccn([C@H]2CC[C@@H](CO)O2)c(=O)n1		Y188L	MTT		0.09 µM
O=C(NCCc1ccccc1)Nc1cncc(Cl)n1			cytopathic effect / XTT		<1 µg/mL
Cc1ccc(C(=O)CSc2nc(Cc3cccc4ccccc34)c(C)c(=O)[nH]2)cc1	SO561945	RT-K103N Y181C	cytopathic effect		≥251 µM
Cc1nnc(NC(=O)NCCc2ccccc2)s1			cytopathic effect / XTT		>100 µg/mL
C#CCOCn1c(Cc2cc(C(F)(F)F)cc(C(F)(F)F)c2)c(CC)c(=O)[nH]c1=O	EFV-resistant (K103R V179D P225H)		MTT		>100 µM
Nc1ncnc2c1ncn2[C@H]1C[C@@H](CO)O1	IIIB		antigen		0.04 µg/mL
C=CCOC[C@@H]1CC(NC(=O)[C@H](OCc2ccccc2)[C@H](O)[C@@H](O)[C@@H](OCc2ccccc2)C(=O)N[C@H]2c3ccccc3C[C@H]2O)CO1			cytopathic effect / XTT		5.45 µM
CC1(C)[C@@H](O[C@H]2O[C@H](C(=O)O)[C@@H](O)[C@H](O)[C@H]2O[C@@H]2O[C@H](C(=O)O)[C@@H](O)[C@H](O)[C@H]2O)CC[C@]2(C)[C@H]3C(=O)C=C4[C@@H]5C[C@@](C)(C(=O)O)CC[C@]5(C)CC[C@@]4(C)[C@]3(C)CC[C@@H]12	IIIB		cytopathic effect		>60 µM
CCC(C)[C@@H](C(=O)N[C@@H](Cc1ccccc1)[C@H](O)CN(CC1CCCC1)S(=O)(=O)c1ccc(/C=N/O)cc1)N1CCN(Cc2cccc(COC)n2)C1=O			cytopathic effect / MTT	50% human serum	0.026 µM
Cc1ccc(NC(=S)NNC(=O)Cc2ccccn2)cc1Cl	IIIB		cytopathic effect / MTT		>100 µM
CCc1c(Cc2cccc3ccccc23)nc(SCC(=O)c2ccc(C)cc2)[nH]c1=O	SO561945	RT-K103N Y181C	cytopathic effect		≥5.62 µM
O=C(NCCc1ccccc1)Nc1cnccn1			cytopathic effect / XTT		<1 µg/mL
O=c1oc2cc(O)cc(O)c2c(O)c1-c1coc2c1c(=O)oc1cc(O)cc(O)c12	IIIB		MTT		0.01 µM

A second listing of 10 rows from above:

smiles	strain or isolate	mutations	method	setting	value
O=C(NCCc1ccccc1)Nc1cncc(Cl)n1			cytopathic effect / XTT		<1 µg/mL
Fc1ccc(-n2c(Cc3ccccn3)n[nH]c2=S)cc1Cl	IIIB		cytopathic effect / MTT		>100 µM
CC(C)[C@H](NC(=O)OCc1ccccn1)C(=O)N[C@@H](Cc1ccccc1)[C@@H](O)C[C@H](Cc1ccccc1)NC(=O)OCc1cccnc1	NL4-3	PR-L10R M46I L63P V82T I84V	p24		<3 µM
O=C(NCCc1ccccc1)Nc1cnccn1			cytopathic effect / XTT		<1 µg/mL
Cc1nnc(NC(=O)NCCc2ccccc2)s1			cytopathic effect / XTT		>100 µg/mL
O=C1[C@@H](Cc2ccccc2)NC(=S)N1c1ccccc1			cytopathic effect / XTT		<100 µg/mL
Nn1cc(C(=O)O)c(=O)c2ccc(N3CCN(c4nc5ccccc5s4)CC3)nc21	IIIB		MTT		1.18 µM
C[C@]12CCCCC[C@]1(O)Cn1cc(C(=O)NCc3ccc(F)cc3F)c(=O)c(O)c1C2=O	NL4-3		GFP	0% human serum	0.028 µM
O=C(NCCc1ccccc1)Nc1ccn[nH]1			cytopathic effect / XTT		>100 µg/mL
Cc1cc(/C=C/C#N)cc(C)c1Oc1nc(NC2CCN(Cc3ccc([N+](=O)[O-])cc3)CC2)nc2ccsc12	IIIB	NNRTI-resistant (RT Y188L)	MTT		0.117 µM